Compound potency records, mixed from different reports. Data source: NIAID ChemDB in PubChem.

Shared fields: tests on isolated targets

a–b is a range or a potency band.

structure,protein,read-out,dose,species,value
O=C(Nc1cscc1-c1nc(C(=O)O)c(O)c(=O)[nH]1)OCc1ccccc1,HCV polymerase,IC50,,Hepatitis C virus,<25 µM
COCCNc1nc(Nc2ccc3cn[nH]c3c2)nc(OC)n1,DNA polymerase,inhibition,1 µg/mL,Hepatitis B virus,75%
CNC(=O)c1c(-c2ccc(F)cc2)oc2cc(N(C)S(C)(=O)=O)c(OCC(=O)O)cc12,Nonstructural protein 5B,IC50,,Hepatitis C virus,≤0.5 µM
O=C(O)c1ccc2c(c1)nc(-c1ccc3nc(-c4ccccc4)cc(Oc4ccc5ccc(O)cc5c4)c3c1)n2C1CCCCC1,NS5B polymerase,inhibition,33 µM,Hepatitis C virus,100%
CSCC[C@H](NC(=O)c1cnn2c(C3CCCCC3)c(-c3ccc(F)cc3)cnc12)C(=O)O,RNA-dependent RNA polymerase,IC50,,Hepatitis C virus,<1 µM
COc1nc(Nc2ccc3cn[nH]c3c2)nc(N2CCC(O)CC2)n1,DNA polymerase,IC50,,Hepatitis B virus,>1 µg/mL
CNC(=O)c1c(-c2ccc(F)cc2)oc2cc(-c3ncnn3C)c(OC)cc12,Nonstructural protein 5B,IC50,,Hepatitis C virus,≤0.5 µM
COc1nc(Nc2ccc3cn[nH]c3c2)nc(NN2CCN(C)CC2)n1,DNA polymerase,inhibition,0.01 µg/mL,Hepatitis B virus,2%
Cc1ccc(S(=O)(=O)Nc2c(C(=O)O)sc(-c3ccccc3)c2C)c(C)c1,NS3 ATPase,IC50,,Hepatitis C virus,5–20 µM
O=C(CN1CC(c2ccccc2)CC1=O)Nc1ccsc1-c1nc(C(=O)O)c(O)c(=O)[nH]1,HCV polymerase,IC50,,Hepatitis C virus,<25 µM
O=C(O)c1ccc2c(c1)nc(-c1ccc3nc(-c4ccccc4Br)ccc3c1)n2C1CCCCC1,NS5B polymerase,inhibition,100 µM,Hepatitis C virus,98.82%
O=C(Cc1csc2ccccc12)Nc1cscc1-c1nc(C(=O)O)c(O)c(=O)[nH]1,HCV polymerase,IC50,,Hepatitis C virus,<25 µM
CNC(=O)c1c(-c2ccc(F)cc2)oc2cc(-c3nocc3CCO)c(OC)cc12,Nonstructural protein 5B,IC50,,Hepatitis C virus,≤0.5 µM
CS(=O)(=O)c1ccc(-c2ccc(-c3cnc4c(-c5nn[nH]n5)cnn4c3C3CCCCC3)cc2)cc1,RNA-dependent RNA polymerase,IC50,,Hepatitis C virus,<1 µM
O=C(O)c1ccc2cc(NC(=O)c3ccc4c(c3)nc(-c3ccc5nc(-c6ccccc6)cnc5c3)n4C3CCCCC3)ccc2c1,NS5B polymerase,inhibition,33 µM,Hepatitis C virus,96.84%
Cc1ccccc1S(=O)(=O)Nc1cc(/C=C/c2ccc(Cl)cc2)sc1C(=O)O,NS3 ATPase,IC50,,Hepatitis C virus,5–20 µM
CCOc1cc2c(C(=O)NC)c(-c3ccc(F)cc3)oc2cc1N(C)S(C)(=O)=O,Nonstructural protein 5B,IC50,,Hepatitis C virus,≤0.5 µM
COc1nc(NCCN(C)C)nc(Nc2ccc3[nH]ncc3c2)n1,Nonstructural protein 5B,inhibition,1 µg/mL,Hepatitis C virus,37%
Cc1ccccc1S(=O)(=O)Nc1cc(-c2cccc(N)c2)sc1C(=O)O,NS3 ATPase,IC50,,Hepatitis C virus,5–20 µM
O=C(NCCc1ccccc1F)Nc1cscc1-c1nc(C(=O)O)c(O)c(=O)[nH]1,HCV polymerase,IC50,,Hepatitis C virus,<25 µM
O=C(O)CCC(NC(=O)c1ccc2c(c1)nc(-c1ccc3nc(-c4ccccc4)cnc3c1)n2C1CCCCC1)C(=O)O,NS5B polymerase,inhibition,100 µM,Hepatitis C virus,97.38%
COc1nc(Nc2ccc3[nH]ncc3c2)nc(NC2CC2)n1,DNA polymerase,inhibition,0.1 µg/mL,Hepatitis B virus,20%
CCCCCC(=O)N(CC)c1cc(-c2ccccc2)sc1C(=O)O,NS3 ATPase,IC50,,Hepatitis C virus,<5 µM
CNC(=O)c1c(-c2ccc(F)cc2)oc2cc(N3CCOCC3)c(OCc3noc(C(C)(C)C)n3)cc12,Nonstructural protein 5B,IC50,,Hepatitis C virus,≤0.5 µM
Cc1cc(-c2ccccc2-c2ccc(Cl)cc2)nc2ccc(-c3nc4cc(C(=O)O)ccc4n3C3CCCCC3)cc12,NS5B polymerase,inhibition,33 µM,Hepatitis C virus,98.59%
CCC(=O)N(Cc1ccc([N+](=O)[O-])cc1)c1cc(-c2ccccc2)sc1C(=O)O,NS3 ATPase,IC50,,Hepatitis C virus,5–20 µM
O=C(Nc1cscc1-c1nc(C(=O)O)c(O)c(=O)[nH]1)c1cccs1,HCV polymerase,IC50,,Hepatitis C virus,<25 µM
O=S(=O)(Cc1ccccc1)Nc1cnn2c(C3CCCCC3)c(-c3ccc(OCc4ccccc4)cc3)cnc12,RNA-dependent RNA polymerase,IC50,,Hepatitis C virus,>10 µM
COc1nc(Nc2ccc3[nH]ncc3c2)nc(N2CCN(CCO)CC2)n1,DNA polymerase,IC50,,Hepatitis B virus,0.1–1 µg/mL
O=C(NCc1cccc([N+](=O)[O-])c1)Nc1ccccc1-c1nc(C(=O)O)c(O)c(=O)[nH]1,HCV polymerase,IC50,,Hepatitis C virus,<100 µM
CNC(=O)c1c(-c2ccc(F)cc2)oc2cc(N(C(C)C)S(C)(=O)=O)c(OC(C)C)cc12,Nonstructural protein 5B,IC50,,Hepatitis C virus,≤0.5 µM
Cc1ccccc1C(=O)Nc1cc(-c2ccc(NS(C)(=O)=O)cc2)sc1C(=O)O,NS3 ATPase,IC50,,Hepatitis C virus,5–20 µM
O=C(O)c1ccc2c(c1)nc(-c1ccc3nc(-c4cc5cccc(O)c5o4)ccc3c1)n2C1CCCCC1,NS5B polymerase,inhibition,33 µM,Hepatitis C virus,78.12%
COC(=O)c1cnn2c(-c3ccc(OCc4ccccc4)cc3)c(-c3ccccc3)cnc12,RNA-dependent RNA polymerase,IC50,,Hepatitis C virus,>10 µM
O=C(Nc1cc(-c2ccccc2)sc1C(=O)O)c1ccc(Cl)cc1Cl,NS3 ATPase,IC50,,Hepatitis C virus,<5 µM
O=C(NCc1cc(Cl)ccc1Cl)Nc1ccsc1-c1nc(C(=O)O)c(O)c(=O)[nH]1,HCV polymerase,IC50,,Hepatitis C virus,<25 µM
COc1nc(Nc2ccc3cn[nH]c3c2)nc(NN2CCOCC2)n1,DNA polymerase,IC50,,Hepatitis B virus,0.1–1 µg/mL
CN(C(=O)c1ccc(C(F)(F)F)c(F)c1F)c1cc(-c2ccccc2)sc1C(=O)O,NS3 ATPase,IC50,,Hepatitis C virus,5–20 µM
COc1nc(NCCO)nc(Nc2ccc3[nH]ncc3c2)n1,DNA polymerase,inhibition,1 µg/mL,Hepatitis B virus,55%
CC(C)(C)c1ccc(S(=O)(=O)Nc2ccccc2-c2nc(C(=O)O)c(O)c(=O)[nH]2)cc1,HCV polymerase,IC50,,Hepatitis C virus,<100 µM
O=C(N[C@@H](Cc1ccc(O)cc1)C(=O)O)c1cnn2c(C3CCCCC3)c(-c3ccc(Cl)cc3)cnc12,RNA-dependent RNA polymerase,IC50,,Hepatitis C virus,<1 µM
COc1nc(Nc2ccc3[nH]ncc3c2)nc(N2CCC(C(N)=O)CC2)n1,Nonstructural protein 5B,inhibition,10 µg/mL,Hepatitis C virus,85%

Repeating the final 3 entries:

structure,protein,read-out,dose,species,value
CC(C)(C)c1ccc(S(=O)(=O)Nc2ccccc2-c2nc(C(=O)O)c(O)c(=O)[nH]2)cc1,HCV polymerase,IC50,,Hepatitis C virus,<100 µM
O=C(N[C@@H](Cc1ccc(O)cc1)C(=O)O)c1cnn2c(C3CCCCC3)c(-c3ccc(Cl)cc3)cnc12,RNA-dependent RNA polymerase,IC50,,Hepatitis C virus,<1 µM
COc1nc(Nc2ccc3[nH]ncc3c2)nc(N2CCC(C(N)=O)CC2)n1,Nonstructural protein 5B,inhibition,10 µg/mL,Hepatitis C virus,85%

Percent inhibition refers to the dose given; in toxicity tests it is the harm to the cells. ICn: concentration for n% inhibition. An empty or dashed field is not shown. Lines come from different laboratories, so protocols vary.